Experimental data published in paper PMC11915835 (Journal of Virology, 2025).

Tests used:
[1] = general procedure: Fmoc solid-phase peptide synthesis; Rink amide resin; DIC/OxymaPure; details: for final HPLC purity: 220 nm
[2] = Fmoc solid-phase peptide synthesis; Rink amide resin; DIC/OxymaPure; details: whole synthesis, 220 nm

Substance | final HPLC purity ([1]; whole synthesis) | final HPLC purity ([1]; lipidation step) | further results
PEPTIDE1{[ac].D.I.S.Q.I.N.A.S.V.V.N.I.E.Y.E.I.K.K.L.E.E.V.A.K.K.L.E.E.S.L.I.D.L.Q.E.L.[am]}$$$$V2.0 | 99.3% |  | 
PEPTIDE1{[ac].P.D.V.D.L.G.D.I.S.Q.I.N.A.S.V.V.N.I.E.Y.E.I.K.K.L.E.E.V.A.K.K.L.E.E.S.L.I.D.L.Q.E.L.[am]}$$$$V2.0 | 96.9% |  | 
PEPTIDE1{[ac].D.I.S.G.I.N.A.S.V.V.N.I.Q.K.E.I.D.R.L.N.E.V.A.K.N.L.N.E.S.L.I.D.L.Q.E.L.G.S.G.S.G.C.[am]}$$$$V2.0 |  | 95.4% | difficulty met ([1]; whole synthesis): Technical issues encountered during synthesis, purification, and analysis of HRC and HRC-L peptides
Ac –I E Y E I K K L E E V A K K L E E S L - NH2 | 99.2% |  | 
Ac –IEYEIKKLEEVAKKLEESLIDLQEL - NH2 |  |  | final HPLC purity [2]: 98.5%
PEPTIDE1{[ac].S.I.D.Q.I.N.A.T.F.V.D.I.E.Y.E.I.K.K.L.E.E.V.A.K.K.L.E.E.S.Y.I.D.L.K.E.L.G.S.G.S.G.C.[am]}$$$$V2.0 |  | 99.8% | 
PEPTIDE1{[ac].S.L.D.Q.I.N.V.T.F.L.D.L.E.Y.E.M.K.K.L.E.E.A.I.K.K.L.E.E.S.Y.I.D.L.K.E.L.[am]}$$$$V2.0 | 95.0% |  | 
PEPTIDE1{[ac].D.I.S.Q.I.N.A.S.V.V.N.I.E.Y.E.I.K.K.L.E.E.V.A.K.K.L.E.E.S.L.I.D.L.Q.E.L.G.S.G.S.G.C.[am]}$$$$V2.0 |  | 98.4% | 
PEPTIDE1{[ac].S.I.D.Q.I.N.A.T.F.V.D.I.E.Y.E.I.K.K.L.E.E.V.A.K.K.L.E.E.S.Y.I.D.L.K.E.L.[am]}$$$$V2.0 | 99.8% |  | 

For some of these results: Strings that start with PEPTIDE1 are HELM notation: dots part the residues, brackets hold end groups and non-standard residues.
